Potato spindle tuber viroid, stem 15: variant abundance in plants

PSTVd intermediate strain, stem 15: wild type CUGGAGCGAUCGCUUCGG, pool pattern CUGGAGCGAUNGNNUNNG; upper and lower strand joined, each 5' to 3', the first 9 letters being the upper strand.

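A pool of all variants was put on leaves of three Nicotiana benthamiana plants. Progeny were sequenced from the inoculated region (day 5), the margin of the inoculated leaf (day 10) and systemic leaves (day 12).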

Values are reads per thousand in the sample; higher means more abundant, 0 means not found.
Each value is the mean of three plants.
"Pool" is the share in the plasmid pool used as inoculum, on the same scale.
The inoculated region was read from the minus strand, the other sites from the plus strand.

| sequence | pool | inoculated region | leaf margin | systemic leaves |
|---|---|---|---|---|
| CUGGAGCGAUUGUUUCGG | 1.03 | 0.716 | 0.0466 | 0 |
| CUGGAGCGAUCGCGUCAG | 0.776 | 0.256 | 0.0601 | 0 |
| CGGGAGCGAUAGGCUAAG | 0.0162 | 0 | 0 | 0 |
| CUGGAGCGAUUGGCUCAG | 0.776 | 1.35 | 0.0419 | 0 |
| CUGGAGCGAUUGCUUUUG | 1.55 | 0.838 | 0.0138 | 0 |
| CUGGAGCGAUUGAUUGAG | 1.33 | 1.14 | 0.0485 | 0.0133 |
| CUGGAGCGAUUGGAUAGG | 0.824 | 0.292 | 0.0503 | 0 |
| AUGGAGCGAUAGGUUUUG | 0.0162 | 0 | 0 | 0 |
| CUGGAGCGAUCGAGUAAG | 0.792 | 0.291 | 0.0440 | 0 |
| CUGGAGCGAUCGGCUAUG | 0.808 | 0.316 | 0.0298 | 0 |
| CUGGAGCGAUGGCUUACG | 0.646 | 0.341 | 0.0320 | 0 |
| CUGGAGCGAUUGCGUGCG | 0.857 | 0.284 | 0.0298 | 0 |
| AUGGAGCGAUCGGAUGAG | 0.0162 | 0 | 0 | 0 |
| CUGGAGCGAUUGACUGCG | 0.679 | 0.319 | 0.0416 | 0 |
| CUGGAGCGAUCGACUACG | 0.986 | 0.320 | 0 | 0 |
| CUGGAGCGAUUGGCUUUG | 0.954 | 1.56 | 0.557 | 0.251 |
| CUGGAGCGAUUGGGUACG | 0.808 | 0.176 | 0.0229 | 0 |
| CUGGAGCGAUUGGUUAUG | 1.86 | 0.585 | 0.0419 | 0 |
| CUGGAGCGAUGGGAUUCG | 0.921 | 0.339 | 0.00528 | 0 |
| CUGGAGCGAUGGGCUUCG | 0.857 | 0.245 | 0.0350 | 0 |
| CUGGAGCGAUAGCAUAUG | 0.776 | 0.251 | 0.0260 | 0 |
| CUGGAGCGAUUGAGUUAG | 0.727 | 1.12 | 0.0525 | 0 |
| CUGGAGCGAUAGCUUGGG | 0.727 | 0.315 | 0.0541 | 0 |
| CUGGAGCGAUAGAGUGCG | 0.840 | 0.274 | 0.0485 | 0 |
| CUGGAGCGAUAGCUUGUG | 1.00 | 0.299 | 0.0365 | 0 |
| CUGGAGCGAUAGAGUUUG | 0.937 | 0.232 | 0.0388 | 0 |
| CUGGAUCGAUUGACUACG | 0.0162 | 0 | 0 | 0 |
| CUGGAGCGAUGGGUUGUG | 0.792 | 0.319 | 0.0532 | 0 |
| CUGGAGCGAUCGUCUCUG | 0.743 | 0.223 | 0.0144 | 0 |
| CUGGAGCGAUGGCCUUUG | 0.889 | 0.282 | 0.0191 | 0 |
| CUGGAGCGAUGAUUCAGC | 1.10 | 2.20 | 0.819 | 0.522 |
| CUGGAGCGAUGGGUUCUG | 0.808 | 0.330 | 0.00908 | 0 |
| CUGGAGCGAUCGUUUCUG | 0.970 | 0.373 | 0.0435 | 0 |
| CUGGAGCGAUCGCUUCGG | 10.2 | 321 | 811 | 889 |
| CUGGAGCGAUAGGGUAAG | 1.00 | 0.233 | 0.0525 | 0 |
| CUGGAGCGAUGGUGUAUG | 0.695 | 0.255 | 0.0434 | 0 |
| AUGGAGCGAUCGCAUCUG | 0.0162 | 0 | 0 | 0 |
| CUGGAGCGAUUGAGUGCG | 0.776 | 0.319 | 0.0298 | 0 |
| CUGGAGAGAUAGACUUGG | 0.0162 | 0 | 0 | 0 |
| CUGGAGCGAUGGAUUCCG | 0.889 | 0.303 | 0.0144 | 0 |
| CUGGAGCGAUCGGUUAUG | 1.87 | 1.32 | 0.0282 | 0.00664 |
| CUGGAGCGAUCGGCUUAG | 1.21 | 1.54 | 0.699 | 0.313 |
| CUCGAGCGAUGGGUUUUG | 0.0162 | 0 | 0 | 0 |
| CUGGAGCGAUCGUCUGCG | 0.760 | 0.276 | 0.0394 | 0 |
| CUGGAGCGAUGGACUAAG | 1.05 | 1.27 | 0.0378 | 0 |
| CUGGAGCGAUCGAGUGCG | 0.873 | 0.358 | 0.0350 | 0 |
| CUGGAGCGAUAGAUUUAG | 0.840 | 0.287 | 0.0260 | 0 |
| CUGGAGCGAUCGGUUCCG | 0.873 | 0.372 | 1.04 | 0 |
| CUGGAGCGAUCGACUGCG | 0.824 | 0.242 | 0.0282 | 0 |
| CUGGAGCGAUAGCAUUGG | 0.808 | 0.292 | 0.0191 | 0 |
| CUGGAGAGAUUGGAUCUG | 0.0162 | 0 | 0 | 0 |
| CUGGAGCGAUCGAUUCGG | 1.10 | 0.554 | 0.295 | 0.149 |
| CUGGAGCGAUCGAGUAGG | 1.07 | 0.308 | 0.0244 | 0 |
| CUGGAGCGAUAGUCUAUG | 1.00 | 0.448 | 0.0402 | 0 |
| CUGGAGCGAUGGGCUGCG | 0.986 | 0.296 | 0.0799 | 0 |
| CUGGAGCGAUAGAAUACG | 0.824 | 0.308 | 0.0432 | 0 |
| CUGGAGCGAUUGAGUUCG | 0.743 | 0.313 | 0.0345 | 0 |
| CUGGAGCGAUGGAGUGGG | 0.954 | 0.332 | 0.0372 | 0 |
| CUGGAGCGAUUGCGUUUG | 0.776 | 0.236 | 0.0472 | 0 |
| CUGGAGCGAUCGGAUUAG | 0.824 | 0.241 | 0.0298 | 0 |
| CUGGAGCGAUUGCCUCAG | 1.03 | 1.37 | 0.551 | 0.541 |
| CUGGAGCGAUUGAUUAAG | 0.873 | 0.234 | 0.0276 | 0 |
| CUGGAGCGAUCGCAUGGG | 0.954 | 0.385 | 0.0260 | 0 |
| CUGGAGCGAUUGCGUUCG | 0.808 | 0.295 | 0.00528 | 0 |
| CUGGAGCGAUGGGAUCAG | 0.937 | 0.201 | 0.0367 | 0 |
| CUGGAGCGAUUGGUUUCG | 0.614 | 0.268 | 0.0350 | 0 |
| CUGGAGCGAUUGAUUGGG | 2.15 | 0.938 | 0.0488 | 0 |
| CUGGAGCGAUCGCUUAUG | 0.970 | 0.278 | 0.0106 | 0.0132 |

A selection of 3 entries from above:

| sequence | pool | inoculated region | leaf margin | systemic leaves |
|---|---|---|---|---|
| CUGGAGCGAUUGGCUUUG | 0.954 | 1.56 | 0.557 | 0.251 |
| CUGGAGCGAUUGUUUCGG | 1.03 | 0.716 | 0.0466 | 0 |
| CUGGAGCGAUUGCUUUUG | 1.55 | 0.838 | 0.0138 | 0 |

The authors trace changes outside the varied positions to PCR and sequencing errors or to mutation in the plant; presence does not show that a variant is infectious alone.
Wild type was 10.2 per thousand in the pool and the most common sequence in every sample (inoculated region 285, 367, 312; leaf margin 785, 865, 782; systemic leaves 854, 898, 915).
With 36,693-63,082 reads a sample, very low values are single reads.

Data from the supplement of Wu et al. 2024, doi:10.1371/journal.ppat.1012142.